# Marks after values point to notes of the source that are not given here.
# Legend:
# type 3 reovirus = assay: Known inactivators: reduction in viral titre, reovirus; details: 0.05%
# HSV-1 herpesvirus = assay: Known inactivators: reduction in viral titre, herpesvirus; details: 0.05%
# adenovirus 5 = assay: Known inactivators: reduction in viral titre, adenovirus; details: 0.05%
# avian C-type retrovirus = assay: Known inactivators: reduction in viral titre, retrovirus; details: 0.05%, 16-24 hours
# [1] = test system: Mammalian orthoreovirus, type 3 (strain Dearing, ATCC VR-824); assay: Reovirus model, titration on L929 cells (Table 2); format: cell-based; details: 0.05% inactivator; 16 hours, 2-8° C.; then 3 hours at 37° C.
# [2] = test system: Influenza A/California/7/09 infected cell DNA; assay: Abasic sites induced by inactivation, A/California; details: 0.05%; 4/37° C.; untreated sample = 1
# [3] = test system: Influenza A/Christchurch//16/10 infected cell DNA; assay: Abasic sites induced by inactivation (DNA Damage Quantification Kit), A/Christchurch; details: 0.05%; 2-8/37° C.; untreated sample = 1
# [4] = test system: Influenza A/Brisbane/10/2010 infected cell DNA; assay: Abasic sites induced by inactivation, A/Brisbane; details: 0.05%; 2-8/37° C.; untreated sample = 1
# [5] = test system: Paramyxovirus, Parainfluenzavirus 3; assay: Comparative data for inactivation with BPL: Parainfluenzavirus 3; details: BPL 0.05%; 16 hours +2-8° C. (then 2 hours 37° C. for BPL hydrolysis); complete inactivation
# [6] = test system: Influenza B/Wisconsin/1/2010 infected cell DNA; assay: Abasic sites induced by double inactivation with BPL and 069-1; details: 2-8/37° C.
# [7] = test system: Influenza B/Wisconsin/1/2010 infected cell DNA; assay: Abasic sites induced by single/double inactivation with different concentrations of 069-1; details: single inactivation treatment; 0.05%; 2-8/37° C.
# [8] = 16 hours, 2-8° C. (then 3 hours at 37° C.)
# [9] = 16 hours, 2-8° C. (then 3 hours at 37° C. to remove BPL)
compound,measurement,setting,value
C=O,log 10 reduction factor in viral titre after treatment,"type 3 reovirus; 16 hours, 2-8° C.",~0 log 10
same,log 10 reduction factor in viral titre after treatment,"type 3 reovirus; 17 hours, 19-23° C.",1.7 log 10
same,log 10 reduction factor in viral titre after treatment,"type 3 reovirus; 24 hours, 19-23° C.",2.1 log 10
same,log 10 reduction factor in viral titre after treatment,"type 3 reovirus; 3 days, 2-8° C.",0.9 log 10
same,log 10 reduction factor in viral titre after treatment,"type 3 reovirus; 6 days, 2-8° C.",1.55 log 10
same,log 10 reduction factor in viral titre after treatment,"HSV-1 herpesvirus; 17 hours, 19-23° C.",2.95 log 10
same,log 10 reduction factor in viral titre after treatment,"HSV-1 herpesvirus; 24 hours, 19-23° C.",3.25 log 10
same,log 10 reduction factor in viral titre after treatment,"HSV-1 herpesvirus; 3 days, 2-8° C.",2.8 log 10
same,log 10 reduction factor in viral titre after treatment,"HSV-1 herpesvirus; 6 days, 2-8° C.",2.95 log 10
same,log 10 reduction factor in viral titre after treatment,"adenovirus 5; 17 hours, 19-23° C.",≧6.65 log 10
same,log 10 reduction factor in viral titre after treatment,"adenovirus 5; 24 hours, 19-23° C.",≧6.65 log 10
same,log 10 reduction factor in viral titre after treatment,avian C-type retrovirus; 15° C.,0.6-1.0 log 10
same,log 10 reduction factor in viral titre after treatment,avian C-type retrovirus; 20° C.,1.3-1.8 log 10
same,log 10 reduction factor in viral titre after treatment,avian C-type retrovirus; 24° C.,1.5-2.2 log 10
"1,1-Dihydroperoxymethane",Reduction (of reovirus titre),[1],≧3.8 * log 10
C1CN1,log 10 reduction factor in viral titre after treatment,type 3 reovirus; [8],0.65 log 10
"2,2′-Dihydroperoxy-2,2′-dibutylperoxide",Reduction (of reovirus titre),[1],3.3 log 10
CCCC(OO)OO,Reduction (of reovirus titre),[1],4.0 log 10
H2O2,Reduction (of reovirus titre),[1],0.45 log 10
β-propiolactone,log 10 reduction factor in viral titre after treatment,type 3 reovirus; [8],2.3-3.8 log 10
same,Relative number of APS,[2],63
same,Relative number of APS,[3],0.6
same,log 10 reduction factor in viral titre after treatment,HSV-1 herpesvirus; [9],4.5 log 10
same,Reduction (of reovirus titre),[1],2.5 log 10
same,Relative number of APS,[4],29
same,LRV,[5],≧9.5
same,log 10 reduction factor in viral titre after treatment,adenovirus 5; [9],2.7 log 10
same,Relative number of APS,"[6]; Twofold inactivation treatment: BPL first, then the named inactivator 0.05%, samples diluted, dilution factor used",20
same,Relative number of APS,"[6]; single inactivation treatment, 0.05%",2
same,Relative number of APS,[7],30
N-acetyl ethyleneimine,log 10 reduction factor in viral titre after treatment,type 3 reovirus; [8],1.15 log 10

# Reference: patent US9426989B2 (priority 2010, dated 2016)
